{"source": "PubChem BioAssay AID624099 (ICCB-Longwood, 2012)", "test": "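Host factors E2 relies on to silence an HPV18 LCR reporter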 (primary screen)", "cells": "human C33A cervical carcinoma cells (HPV-negative) stably expressing BPV1 E2 and an HPV18 LCR luciferase reporter", "reagent": "siRNA pool against human genes, 40 nM", "time to read-out": "72 h", "detection": "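Per-well luciferase luminescence, z-scored on each plate against the plate mean and SD with control wells left out, then averaged across three replicate plates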", "direction": "mean z-score and z-score: higher = stronger reporter signal, weaker E2 silencing", "call rule": "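Hit if mean z-score reaches 2 and two or more of three replicate z-scores also reach 2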", "note": "This is a random part of about 21,000 reagents. In the full data, 497 (2.4%) got an active call. 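Higher z means weaker E2 silencing; only reporter increases were scored, and knock-downs that hurt cell survival may mask genuine repressor factors.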"}
{"gene":"DGCR2 (DiGeorge syndrome critical region gene 2)","mean z-score":1.44,"z-score, replicate A":1.69,"z-score, replicate B":1.16,"z-score, replicate C":1.47,"activity call":"inactive"}
{"gene":"RBM22 (RNA binding motif protein 22)","mean z-score":3.14,"z-score, replicate A":2.53,"z-score, replicate B":3.54,"z-score, replicate C":3.35,"activity call":"active"}
{"gene":"TADA2A (transcriptional adaptor 2A)","mean z-score":1.3,"z-score, replicate A":1.28,"z-score, replicate B":1.27,"z-score, replicate C":1.34,"activity call":"inactive"}
{"gene":"FXYD4 (FXYD domain containing ion transport regulator 4)","mean z-score":-0.09,"z-score, replicate A":-0.07,"z-score, replicate B":0.18,"z-score, replicate C":-0.37,"activity call":"inactive"}
{"gene":"RNF26 (ring finger protein 26)","mean z-score":0.3,"z-score, replicate A":0.27,"z-score, replicate B":0.55,"z-score, replicate C":0.06,"activity call":"inactive"}
{"gene":"KBTBD12 (kelch repeat and BTB domain containing 12)","mean z-score":0.41,"z-score, replicate A":0.64,"z-score, replicate B":0.33,"z-score, replicate C":0.26,"activity call":"inactive"}
{"gene":"DKKL1 (dickkopf like acrosomal protein 1)","mean z-score":0.64,"z-score, replicate A":0.98,"z-score, replicate B":0.57,"z-score, replicate C":0.38,"activity call":"inactive"}
{"gene":"LOC51212 (retired record)","mean z-score":0.1,"z-score, replicate A":0.45,"z-score, replicate B":-0.04,"z-score, replicate C":-0.1,"activity call":"inactive"}
{"gene":"SMC2 (structural maintenance of chromosomes 2)","mean z-score":-1.22,"z-score, replicate A":-1.21,"z-score, replicate B":-1.16,"z-score, replicate C":-1.28,"activity call":"inactive"}
{"gene":"CAMSAP2","mean z-score":-0.28,"z-score, replicate A":-0.44,"z-score, replicate B":-0.28,"z-score, replicate C":-0.12,"activity call":"inactive"}
{"gene":"MT-ND3 (mitochondrially encoded NADH dehydrogenase 3)","mean z-score":-1.67,"z-score, replicate A":-1.53,"z-score, replicate B":-1.79,"z-score, replicate C":-1.69,"activity call":"inactive"}
{"gene":"DNAJB11 (DnaJ heat shock protein family (Hsp40) member B11)","mean z-score":0.15,"z-score, replicate A":0.3,"z-score, replicate B":0.14,"z-score, replicate C":-0.01,"activity call":"inactive"}
{"gene":"RNF130 (ring finger protein 130)","mean z-score":0.18,"z-score, replicate A":-0.31,"z-score, replicate B":0.35,"z-score, replicate C":0.5,"activity call":"inactive"}
{"gene":"KRIT1 (KRIT1 ankyrin repeat containing)","mean z-score":0.08,"z-score, replicate A":-0.2,"z-score, replicate B":0.19,"z-score, replicate C":0.26,"activity call":"inactive"}
{"gene":"POLD2 (DNA polymerase delta 2, accessory subunit)","mean z-score":1.05,"z-score, replicate A":0.83,"z-score, replicate B":1.42,"z-score, replicate C":0.89,"activity call":"inactive"}
{"gene":"ANKRD19P (ankyrin repeat domain 19, pseudogene)","mean z-score":-0.81,"z-score, replicate A":-0.8,"z-score, replicate B":-1.07,"z-score, replicate C":-0.57,"activity call":"inactive"}
{"gene":"ABTB1 (ankyrin repeat and BTB domain containing 1)","mean z-score":0.47,"z-score, replicate A":0.56,"z-score, replicate B":0.42,"z-score, replicate C":0.43,"activity call":"inactive"}
{"gene":"OMA1 (OMA1 zinc metallopeptidase)","mean z-score":-0.17,"z-score, replicate A":-0.11,"z-score, replicate B":-0.21,"z-score, replicate C":-0.18,"activity call":"inactive"}
{"gene":"NAPB (NSF attachment protein beta)","mean z-score":0.93,"z-score, replicate A":0.93,"z-score, replicate B":1.23,"z-score, replicate C":0.64,"activity call":"inactive"}
{"gene":"GAB2 (GRB2 associated binding protein 2)","mean z-score":-0.69,"z-score, replicate A":-0.26,"z-score, replicate B":-1.09,"z-score, replicate C":-0.73,"activity call":"inactive"}
{"gene":"OR4C3 (olfactory receptor family 4 subfamily C member 3)","mean z-score":-0.65,"z-score, replicate A":-0.67,"z-score, replicate B":-0.46,"z-score, replicate C":-0.81,"activity call":"inactive"}

3 of these entries, reformatted.
POLD2 (DNA polymerase delta 2, accessory subunit) → mean z-score: 1.05; z-score, replicate A: 0.83; z-score, replicate B: 1.42; z-score, replicate C: 0.89; activity call: inactive
ANKRD19P (ankyrin repeat domain 19, pseudogene) → mean z-score: -0.81; z-score, replicate A: -0.8; z-score, replicate B: -1.07; z-score, replicate C: -0.57; activity call: inactive
ABTB1 (ankyrin repeat and BTB domain containing 1) → mean z-score: 0.47; z-score, replicate A: 0.56; z-score, replicate B: 0.42; z-score, replicate C: 0.43; activity call: inactive
